Experimental data published in patent US20160305948A1 (GOVEMMENT OF THE US AS REPRESENTED BY THE SECRETARY OF THE …, published 2016).

Target: ricin A chain (UniProt P02879 36-302)

B1: c8-GS-3k (VHH)
VHH: EVQLQASGGGLVQGGDSLRLSCAASGRTLGDYGVAWFRQAPGKEREFVSVISRSTIITDYANSVKGRFTISRDNAKNAVYLQMNSLKPEDTAVYYCAVIANPVYATSRNSDDYGHWGQGTQVTVSS
fold signal increase against C8 sdAb: 1.4 fold
